According to paper PMC7793522, “TCR Recognition of Peptide–MHC-I: Rule Makers and Breakers” (2020):

Molecular target: T1, human cytomegalovirus (CMV), NLV peptide peptide on HLA-A*02:01 (human)
T1 chain: NLVPMVATV
Test: data from [33]; method not given; soluble, other
Settings: chains alpha TRAV26-2*01 CDR3:beta TRBV7-6*01 CDR3

B1: C25 (peptide)
chain 1: ILDNNNDMR
chain 2: ASSLAPGTTNEKLF
Q: B1 was tested. Which Kd did it give?
A: Its Kd is 4.7 µM.
